The text below walks through data of US9907860B2, “Conjugated molecules comprising a peptide derived from the CD4 receptor coupled to an anionic polypeptide for the treatment of AIDS” (INSTITUT PASTEUR, priority 2014, dated 2018).

In series [1] the test system is SHIV162p3 viral strain (B-R5). It is filed as cell-based. The settings on record: TZM-bl cells, luciferase, 48 h; clade-tropism B-R5. On the procedure: (§1) The antiviral activity of the tested compounds was determined by pre-incubating 10^4 TZM-bl cells/well in a 96-well plate for 30 min at 37° C. and 5% CO2 with or without a serial dilution of the compound. Next, 200 TCID50 of viruses were added to each well and cultures were incubated for 48 h before luciferase activity was quantified. Each compound was tested in triplicate in a single experiment. Antiviral activity was expressed as the percentage of viral inhibition compared to the untreated control and plotted against the compound concentration. Next, non-linear regression analysis was used to calculate the 50% effective concentration (EC50).
(§2) The miniCD4 conjugates were then evaluated for their antiviral activity on TZM-bl cells that express Luciferase under the control of the HIV LTR (collaboration G. Vanham, Anvers) according to the protocol described above. All antiviral results are reported in the table below in the form of EC50 values (nM).

In the next series the test system is IIIB viral strain (B-X4). The series is classed as cell-based, HIV. The settings on record: TZM-bl cells, luciferase, 48 h; clade-tropism B-X4. The procedure: as §1, §2
Series [2] concerns VI829 viral strain (C-R5). The series is classed as cell-based, HIV. The settings on record: TZM-bl cells, luciferase, 48 h; clade-tropism C-R5. On the procedure:
as §1, §2

A further series has as its system MN viral strain (B-X4). The series is classed as cell-based, HIV. The settings on record: TZM-bl cells, luciferase, 48 h; clade-tropism B-X4. On the procedure:
as §1, §2

The subject of series [3] is VI820 viral strain (A-X4R5). The series is classed as cell-based, HIV. The settings on record: TZM-bl cells, luciferase, 48 h; clade-tropism A-X4R5. The procedure:
as §1, §2

For a further series, the system named is Bal viral strain (B-R5). The series is classed as cell-based, HIV. The settings on record: TZM-bl cells, luciferase, 48 h; clade-tropism B-R5; read-out: EC50, viral strain Bal. On the procedure: as §1, §2
Series [4] has as its system MP568 (CRF02) viral strain (AG-R5). The series is classed as cell-based, HIV. The settings on record: TZM-bl cells, luciferase, 48 h; clade-tropism AG-R5. On the procedure: as §1, §2
The test system of series [5] is SF162 viral strain (B-R5). The series is classed as cell-based, HIV. The settings on record: TZM-bl cells, luciferase, 48 h; clade-tropism B-R5; read-out: EC50, viral strain SF162. The procedure:
as §1, §2

Series [6] has as its system VI1888 (CRF01) viral strain (AE-R5). The series is classed as cell-based, HIV. The settings on record: TZM-bl cells, luciferase, 48 h; clade-tropism AE-R5; read-out: EC50, viral strain VI1888 (CRF01). On the procedure:
as §1, §2

Series [7] has as its system Ca10-3 (CRF01) viral strain (AE-X4). The series is classed as cell-based, HIV. The settings on record: TZM-bl cells, luciferase, 48 h; clade-tropism AE-X4. On the procedure:
as §1, §2

Series [8] has as its system VI824 viral strain (D-R5). The series is classed as cell-based, HIV. The settings on record: TZM-bl cells, luciferase, 48 h; clade-tropism D-R5. On the procedure: as §1, §2
Series [9] is described as follows: Cytotoxic activity, WST-1 cell proliferation assay. The series is classed as cell-based. The settings on record: human; WST-1, 48 h. The procedure: Cytotoxicity was determined using the water-soluble tetrazolium-1 (WST-1) cell proliferation assay, which is based on the cleavage of the tetrazolium salt WST-1 to a formazan dye by cellular dehydrogenases. Because this bioreduction is dependent on the glycolytic production of NAD(P)H in viable cells, the amount of formazan dye formed is correlated directly to the number of viable cells in a culture. Quantification is performed by measuring absorbance at 450 nm in a multiwell plate reader. An amount of 10^4 cells was plated per well in a 96-well plate, and a serial dilution of compound was added. Forty eight hours later, cell proliferation reagent was added and cell viability was measured compared to untreated control cultures. Cell viability was plotted against the compound concentration, and nonlinear regression analysis was performed to evaluate the 50% cytotoxic concentration (CC50).
The miniCD4 conjugates were then evaluated for their cytotoxic activity according to the protocol described above. All cytotoxic results are reported in the table below in the form of CC50 values (nM).

Series [10] has as its system HIV-1 NLAD8 (R5) in primary CD4+ T cells. The series is described as follows: Viral cell-to-cell transmission assay, HIV-1 NLAD8. The series is classed as cell-based. The settings on record: R5 virus HIV-1 NLAD8, primary CD4+ T cells, intracellular Gag. The procedure: (§3) Primary CD4+ T cells were purified from human peripheral blood by positive selection (Miltenyi). About 98% of cells were CD4+CD3+. For activation, primary T cells were treated with phytohemagglutinin (PHA) (1 μg/ml) for 24 h and then cultured with interleukin 2 (IL-2) (50 IU/ml) for 3-5 days before use. Primary cells were infected with HIV-1 NL4-3 and NLAD8 as described in Lepelley et al. PLoS Pathog 2011, 7:e1001284 and Malbec et al. J Exp Med 2013, 210:2813-2821. Donor cells were used a few days later, when about 20% of the cells were Gag+. Target cells were labeled with FarRed (2.5 μM; Molecular Probes). Donors were preincubated 1 h with the indicated doses of compounds. Donor and target cells were then mixed at a 1:2 ratio in 96-well plates at a final concentration of 1.5×10^6/ml in 200 μl, in duplicates. After 48, 72 or 96 h, cells were stained for intracellular Gag (KC57 mAb, Coulter) and analyzed by flow cytometry. When stated, Nevirapine (NVP; 12.5 nM) or the NIH45-46 broadly neutralizing antibody (bNAb) (Malbec et al. J Exp Med 2013, 210:2813-2821) was added 1 h before coculture.
(§4) mCD4.1, mCD4.2, mCD4.3 and their PS1 conjugates, as well as Nevirapine and NIH45-46, were evaluated for their capacity to inhibit cell-cell HIV transmission. This was performed using primary cells infected with R5 (HIV1-NLAD8) and X4 (HIV1-NL4-3) viruses.

For series [11], the system named is pREJO.c/2864 cl2 viral strain (B-R5). It is filed as cell-based, HIV. The settings on record: TZM-bl cells, luciferase, 48 h; clade-tropism B-R5. The procedure: as §1, §2
In series [12] the test system is p246F10 viral strain (C-R5). It is filed as cell-based, HIV. The settings on record: TZM-bl cells, luciferase, 48 h; clade-tropism C-R5. On the procedure:
as §1, §2

In series [13] the test system is HIV-1 NL4-3 (X4) in primary CD4+ T cells. The series is described as follows: Viral cell-to-cell transmission assay, HIV-1 NL4-3. The series is classed as cell-based. The settings on record: X4 virus HIV-1 NL4-3, primary CD4+ T cells, intracellular Gag. On the procedure:
as §3, §4

pEC50: −log10 of the molar value. Where only a bound is given, the exact number is not on record here.

For the compound `CC(C)C[C@@H]1NC(=O)CNC(=O)[C@H](CC(C)C)NC(=O)[C@H](CO)NC(=O)[C@H](CCCCNC(=O)CCOCCOCCNC(=O)CCN2C(=O)CC(SCCC(=O)NCCCC(=O)N[C@@H](CO)C(=O)N[C@@H](Cc3ccc(OS(=O)(=O)O)cc3)C(=O)N[C@@H](CC(=O)O)C(=O)N[C@@H](Cc3ccc(OS(=O)(=O)O)cc3)C(=O)N[C@@H](CO)C(=O)N[C@@H](Cc3ccc(OS(=O)(=O)O)cc3)C(=O)N[C@@H](CC(=O)O)C(=O)N[C@@H](Cc3ccc(OS(=O)(=O)O)cc3)C(=O)N[C@@H](CO)C(=O)N[C@@H](Cc3ccc(OS(=O)(=O)O)cc3)C(=O)N[C@@H](CC(=O)O)C(=O)N[C@@H](Cc3ccc(OS(=O)(=O)O)cc3)C(=O)N[C@@H](CO)C(=O)O)C2=O)NC(=O)[C@@H]2CSSC[C@@H](C(=O)N[C@H](C(N)=O)C(C)C)NC(=O)[C@H](C)NC(=O)[C@@H]3CSSC[C@H](NC(=O)[C@H](Cc4ccccc4)NC(=O)[C@H](Cc4c[nH]cn4)NC(=O)[C@H](CC(C)C)NC(=O)[C@H](CC(N)=O)NC(=O)CCSSC[C@H](NC(=O)[C@H](CCCNC(=N)N)NC(=O)CNC(=O)[C@H](CC(C)C)NC1=O)C(=O)N[C@@H](C)C(=O)N1CCC[C@@H]1C(=O)N[C@@H]([C@@H](C)O)C(=O)N[C@@H](Cc1ccc(OCC4CCCCC4)cc1)C(=O)N3)C(=O)N[C@@H](CCC(N)=O)C(=O)N[C@@H](CC(C)C)C(=O)N[C@@H](CCCNC(=N)N)C(=O)N2` (stereo partly shown) [M48U1-PS1], the negative-log EC50 (pEC50) is 8.47 in [1]; 10.70 with IIIB viral strain (B-X4); 8.96 in [2]; 9.92 in the series with MN viral strain (B-X4); 10.00 in series [3]; 9.89 in the series with Bal viral strain (B-R5). Besides, the pEC50 is 7.82 in series [4]; 10.30 in [5]; 5.97 in series [6]; 9.22 in [7]; 8.66 in series [8]. The CC50 at 48 h in series [9] is greater than 50000 nM.
`CC(C)C[C@@H]1NC(=O)CNC(=O)[C@H](CC(C)C)NC(=O)[C@H](CO)NC(=O)[C@H](CO)NC(=O)[C@@H]2CSSC[C@@H](C(=O)N[C@H](C(N)=O)C(C)C)NC(=O)[C@H](C)NC(=O)[C@@H]3CSSC[C@H](NC(=O)[C@H](CCCCNC(=O)CCOCCOCCNC(=O)CCN4C(=O)CC(SCCC(=O)NCCCC(=O)N[C@@H](CO)C(=O)N[C@@H](Cc5ccc(OS(=O)(=O)O)cc5)C(=O)N[C@@H](CC(=O)O)C(=O)N[C@@H](Cc5ccc(OS(=O)(=O)O)cc5)C(=O)N[C@@H](CO)C(=O)N[C@@H](Cc5ccc(OS(=O)(=O)O)cc5)C(=O)N[C@@H](CC(=O)O)C(=O)N[C@@H](Cc5ccc(OS(=O)(=O)O)cc5)C(=O)N[C@@H](CO)C(=O)N[C@@H](Cc5ccc(OS(=O)(=O)O)cc5)C(=O)N[C@@H](CC(=O)O)C(=O)N[C@@H](Cc5ccc(OS(=O)(=O)O)cc5)C(=O)N[C@@H](CO)C(=O)O)C4=O)NC(=O)[C@H](Cc4c[nH]cn4)NC(=O)[C@H](CC(C)C)NC(=O)[C@H](CC(N)=O)NC(=O)CCSSC[C@H](NC(=O)[C@H](CCCNC(=N)N)NC(=O)CNC(=O)[C@H](CC(C)C)NC1=O)C(=O)N[C@@H](C)C(=O)NCC(=O)N[C@@H](CO)C(=O)N[C@@H](Cc1ccc(-c4ccccc4)cc1)C(=O)N3)C(=O)N[C@@H](CCC(N)=O)C(=O)N[C@@H](CC(C)C)C(=O)N[C@@H](CCCNC(=N)N)C(=O)N2` (stereo partly shown) [mCD4.1-PS1]: the “block of cell-cell virus transmission” value in series [10] and in series [13] was “also but to a lesser extend” in each case. Besides, the negative logarithm of the EC50 (pEC50) in [1] was 7.44; in the series on IIIB viral strain (B-X4), 10.89; in [2], 7.80; in series [11], 9.18; in the series on MN viral strain (B-X4), 10.10; in series [3], 7.60. The pEC50 with Bal viral strain (B-R5) was 9.27; in series [4], 6.51; in series [5], 9.96; in series [6], 5.96; in series [12], 6.14; in [7], 9.24. This compound also showed a pEC50 in series [8] of 7.40. In series [9], this compound returned a CC50 at 48 h greater than 50000 nM.
